Compound potency records, mixed from different reports. Data source: NIAID ChemDB in PubChem.

Shared fields: whole-cell or culture tests; organism: Candida tropicalis

Two numbers with a dash give a range or band. MIC50, MIC90 and the like: level of inhibition, or share of isolates inhibited. ECn: concentration that inhibits the pathogen or its effect by n%. An empty or dashed field is not shown. Lines come from different laboratories, so protocols vary.

structure | setting | read by | measure | strain | value
Clc1ccc(C(Cn2ccnc2)OCc2csc3c(Cl)cccc23)c(Cl)c1 | - | - | MIC | 27 strains | 1.49 µg/mL
C[C@H]1[C@H](O)[C@@H](C)/C=C/C=C/C=C/C=C/C=C/C=C/C=C/[C@H](O[C@@H]2O[C@H](C)[C@@H](O)[C@H](N)[C@@H]2O)C[C@@H]2O[C@](O)(C[C@@H](O)C[C@@H](O)CC[C@H](O)[C@@H](O)C[C@@H](O)CC(=O)O[C@H]1C)C[C@H](O)[C@H]2C(=O)O | - | - | MIC90 | 54 isolates | 2 µg/mL
Oc1cccc2cc(Cl)cnc12 | 48 h | - | MIC | ATCC 750 | 25 µg/mL
C=CC(C)(O)CCCC=C(C)C | - | - | MIC90 | - | 0.025–0.031 µg/mL
O=[N+]([O-])c1ccc(C[Se]c2nnnn2C2CCCCC2)c([N+](=O)[O-])c1 | 48 h | broth dilution | EC80 | 156 | >500 µM
CC1(C)C=C2C3CCC4[C@@]5(C)CCC(O)C(C)(C)C5CC[C@@]4(C)[C@]3(C)CC[C@@]2(C(=O)O)CC1 | - | broth dilution | MLC | ATCC 750 | >200 µg/mL
Oc1ccc(Cl)c2cccnc12 | 24 h | - | MIC | ATCC 750 | 6.2 µg/mL
C/C=C/Cc1ccc(OC)cc1 | - | broth dilution | MIC | - | 1150 µg/mL
C[C@@H]1[C@H](O)[C@@H](C)/C=C/C=C/CC/C=C/C=C/C=C/C=C/C(O[C@H]2O[C@H](C)[C@@H](O)[C@H](N)[C@@H]2O)CC2O[C@](O)(CC(O)C(O)CCC(O)CC(O)CC(O)CC(=O)O[C@H]1C)CC(O)C2C(=O)O | - | broth dilution | MIC100 | ATCC 13803 | >1024 µg/mL
Clc1ccc(CCC(Cn2ccnc2)Sc2c(Cl)cccc2Cl)cc1 | - | - | MIC50 | 19 isolates | 0.12 µg/mL
OC1(c2ccc(-c3ccccc3)cc2)CN2CCC1CC2 | - | broth dilution | EC50 | ATCC 13803 | >16 µg/mL
O=c1c(O)c(-c2ccccc2)oc2cc(O)cc(O)c12 | - | broth dilution | MIC | - | 160 µg/mL
COC(=O)c1cc(O)c(O)c(O)c1 | - | broth dilution | MLC | ATCC 750 | >200 µg/mL
C=CCSS(=O)CC=C | - | broth dilution | MIC | - | 640 µg/mL
O=C(O)c1cccc(-n2nnnc2SCc2cc([N+](=O)[O-])cc([N+](=O)[O-])c2)c1 | 24 h | broth dilution | EC80 | 156 | >500 µM
Nc1[nH]c(=O)ncc1F | - | - | MIC50 | 19 isolates | 0.12 µg/mL
COc1cc(C=O)ccc1O | - | broth dilution | MIC | - | 130 µg/mL
C=C(c1ccccc1OCc1cccc(Cl)c1)n1ccnc1 | - | - | MIC50 | 19 isolates | 8 µg/mL
Oc1c(Cl)cc(Cl)c2cccnc12 | 48 h | - | MIC | ATCC 750 | 6.2 µg/mL
C[C@@H](c1ncncc1F)[C@](O)(Cn1cncn1)c1ccc(F)cc1F | - | broth dilution | MIC | Clinical isolates | 0.03 µg/mL
C[C@@H]1O[C@@H](OC[C@H]2O[C@@H](Oc3c(-c4ccc(O)cc4)oc4cc(O)cc(O)c4c3=O)[C@H](O)[C@@H](O)[C@@H]2O)[C@H](O)[C@H](O)[C@H]1O | - | - | MIC | - | 640 µg/mL
COC(=O)[C@H]1[C@@H]2C[C@@H](O[C@@H]3O[C@H](C)[C@@H](O)[C@H](N)[C@@H]3O)/C=C/C=C/C=C/C=C/C=C/C=C/C=C/[C@H](C)[C@@H](O)[C@H](C)[C@H](C)OC(=O)C[C@H](O)C[C@H](O)[C@@H](O)CC[C@H](O)C[C@H](O)C[C@](O)(C[C@@H]1O)O2 | - | - | MIC | Clinical isolates | 2 µg/mL
Clc1ccc(COC(Cn2ccnc2)c2ccc(Cl)cc2Cl)c(Cl)c1 | - | broth dilution | MIC | Clinical isolates | 0.06 µg/mL
C1=C(c2cc3ccccc3o2)C2CCN1CC2 | - | broth dilution | EC50 | ATCC 13803 | >16 µg/mL
COC(=O)[C@]12CCC(C)(C)C=C1C1CCC3[C@@]4(C)CCC(=O)C(C)(C)C4CC[C@@]3(C)[C@]1(C)CC2 | - | broth dilution | MLC | ATCC 750 | 200 µg/mL
C[C@@H]1[C@H](O)[C@@H](C)/C=C/C=C/CC/C=C/C=C/C=C/C=C/C(O[C@H]2O[C@H](C)[C@@H](O)[C@H](N)[C@@H]2O)CC2O[C@](O)(CC(O)C(O)CCC(O)CC(O)CC(O)CC(=O)O[C@H]1C)CC(O)C2C(=O)O | - | broth dilution | MFC100 | LM 759 | 64 µg/mL
O=Cc1cc(O)ccc1O | - | broth dilution / turbidity | EC50 | PYCC 3097 | 2.5 µM
COc1cc(O)c2c(c1)C(=O)c1c(cc3c(c1O)-c1c(cc(C)c(C(=O)N[C@H](CO)C(=O)O)c1O)[C@H](O[C@@H]1O[C@H](C)[C@H](O)[C@H](O)[C@H]1O)[C@H]3O)C2=O | - | - | MIC | IFO 10241 | 6.3 µg/mL
O=c1c(O)c(-c2ccc(O)c(O)c2)oc2cc(O)cc(O)c12 | - | broth dilution | MIC | ATCC 750 | 100 µg/mL
C[C@@H](c1ncncc1F)[C@](O)(Cn1cncn1)c1ccc(F)cc1F | - | broth dilution | MIC90 | 17 clinical isolates | 0.062 µg/mL
Cc1ccc(C(C)C)cc1 | - | broth dilution | MIC | - | 11300 µg/mL
COc1cc(O)c2c(=O)c(OC)c(-c3ccc(OC4O[C@H](CO)[C@@H](O)[C@H](O)[C@H]4O)cc3)oc2c1 | - | - | MIC | - | 320 µg/mL
COc1cc(O)cc(/C=C/c2ccc(O)cc2)c1 | - | broth dilution | MIC95 | ATCC MYA-3404/T1 | >300 µg/mL
O=c1cc(-c2ccccc2)oc2cc(O)c(O)c(O)c12 | - | - | MIC | 186.06 | 104 µg/mL
CCC(C)n1ncn(-c2ccc(N3CCN(c4ccc(OC[C@H]5CO[C@](Cn6cncn6)(c6ccc(Cl)cc6Cl)O5)cc4)CC3)cc2)c1=O | - | broth dilution | MIC | Clinical isolates | 0.06 µg/mL
C1=C(c2ccc(OCc3ccccc3)cc2)C2CCN1CC2 | - | broth dilution | EC50 | ATCC 13803 | 0.5 µg/mL
Cc1ccc(C(C)C)cc1O | - | broth dilution | MIC | - | 250 µg/mL
O=[N+]([O-])c1cc(CSc2nnnn2C2CCCCC2)cc([N+](=O)[O-])c1 | 24 h | broth dilution | EC80 | 156 | >500 µM
Nc1nc(=O)n([C@H]2CS[C@@H](CO)O2)cc1F | - | - | MIC50 | 54 isolates | 0.25 µg/mL
C1=C(c2cnc3ccccc3c2)C2CCN1CC2 | - | broth dilution | EC50 | ATCC 13803 | >16 µg/mL
CC(=O)N1CCN(c2ccc(OC[C@H]3CO[C@](Cn4ccnc4)(c4ccc(Cl)cc4Cl)O3)cc2)CC1 | - | broth dilution | MIC50 | 17 clinical isolates | ≤0.031 µg/mL
C1=C(c2cc3ccccc3s2)C2CCN1CC2 | - | broth dilution | EC50 | ATCC 13803 | >16 µg/mL
O=[N+]([O-])c1cc(C[Se]c2nnnn2Cc2ccccc2)cc([N+](=O)[O-])c1 | 24 h | broth dilution | EC80 | 156 | >500 µM
O=C(O)c1ccccc1 | - | - | EC50 | PYCC 3097 | 0.48 µM
O=[N+]([O-])c1cc(CSc2nnnn2Cc2ccccc2)cc([N+](=O)[O-])c1 | 24 h | broth dilution | EC80 | 156 | >500 µM
CCC(C)CC(C)CCCCCCCCC(=O)N[C@H]1C[C@@H](O)[C@H](NCCN)NC(=O)[C@@H]2[C@@H](O)CCN2C(=O)[C@H]([C@H](O)CCN)NC(=O)[C@H]([C@H](O)[C@@H](O)c2ccc(O)cc2)NC(=O)[C@@H]2C[C@@H](O)CN2C(=O)[C@H]([C@@H](C)O)NC1=O | - | broth dilution | MIC | 1507 | 0.25 µg/mL
O=[N+]([O-])c1cc(CSc2cccc[n+]2[O-])cc([N+](=O)[O-])c1 | 48 h | broth dilution | EC80 | 156 | >500 µM
Cc1ccc(C(C)C)c(O)c1 | - | broth dilution / turbidity | EC50 | PYCC 3097 | 0.52 µM
O=C(OC1Cc2c(O)cc(O)cc2OC1c1cc(O)c(O)c(O)c1)c1cc(O)c(O)c(O)c1 | - | broth dilution | MIC50 | Clinical isolate 5 | >128 µg/mL
O=[N+]([O-])c1cc(CSc2nnnn2-c2ccc(Cl)c(Cl)c2)cc([N+](=O)[O-])c1 | 48 h | broth dilution | EC80 | 156 | >125 µM

For reference, 3 entries again:

structure	setting	read by	measure	strain	value
Oc1cccc2cc(Cl)cnc12	48 h	-	MIC	ATCC 750	25 µg/mL
O=[N+]([O-])c1cc(CSc2nnnn2-c2ccc(Cl)c(Cl)c2)cc([N+](=O)[O-])c1	48 h	broth dilution	EC80	156	>125 µM
C1=C(c2ccc(OCc3ccccc3)cc2)C2CCN1CC2	-	broth dilution	EC50	ATCC 13803	0.5 µg/mL